Measured values as given in publication PMC8556396, “Statin-mediated disruption of Rho GTPase prenylation and activity inhibits respiratory syncytial virus infection” (Communications Biology, 2021).
Counter-ions that a name gives are not always drawn.

Tested on: RSV-GFP
Assay: RSV-GFP infection of HEp-2 cells, automated imaging, dose-response
Type: cell-based, Respiratory syncytial virus
Details: dose-response fit, HEp-2, RSV-GFP MOI 0.5
Experimental: HEp-2 cells were seeded to black, flat, microclear-bottom 96-well plates (655096, Greiner Bio-One) at a density of 5000 cells per well and incubated at 37 °C/5% CO2 overnight. The following morning, cells were washed twice with serum-free EMEM and treated with RSV-GFP (MOI 0.5) in a minimal volume of serum-free media for 90 min under frequent agitation. Unbound virus was then removed and replaced with fresh serum-containing EMEM. All drug additions were performed 2 h post-viral exposure, unless otherwise stated. Nuclei were stained with Hoechst 33342 (H3570, Thermo Fisher Scientific) (at a final concentration of 1 µg/mL) 48 h p.i. and imaging was performed using the Cellomics ArrayScan VTI HCS Reader at ×10 magnification (SPARC BioCentre, The Hospital for Sick Children, Toronto, ON).
Automated quantification of infection rates from fluorescent images were performed in CellProfiler (v2.2.0)[86]. Major steps in the image analysis pipeline included: (1) background subtraction and smoothing, (2) segmentation of nuclei, (3) segmentation of GFP-fluorescent area, (4) object masking, and (5) measurement of nuclear number, size, and intensity. Infection rate was quantified from the ratio of nuclei within GFP-fluorescent area to the total number of nuclei (Fig. 1b). This method of analysis accounts for in vitro syncytium formation induced by RSV, whereby a single infected cell may arise from the fusion of multiple cells. Mean nuclear fluorescent intensity and size was quantified as a measure of cell viability. […]

Row | SMILES | HillSlope
1 | CCC(C)(C)C(=O)O[C@H]1C[C@@H](C)C=C2C=C[C@H](C)[C@H](CC[C@@H]3C[C@@H](O)CC(=O)O3)[C@H]21 [Simvastatin, simvastatin] | 2.704
2 | O=C(Nc1ccc([N+](=O)[O-])cc1Cl)c1cc(Cl)ccc1O [Niclosamide] | 8.875
3 | CC(C)[C@@H]1NC(=O)[C@H](C)OC(=O)[C@@H](C(C)C)NC(=O)[C@@H](C(C)C)OC(=O)[C@H](C(C)C)NC(=O)[C@H](C)OC(=O)[C@@H](C(C)C)NC(=O)[C@@H](C(C)C)OC(=O)[C@H](C(C)C)NC(=O)[C@H](C)OC(=O)[C@@H](C(C)C)NC(=O)[C@@H](C(C)C)OC1=O [Valinomycin] | 10.96
4 | CC(C)c1c(C(=O)Nc2ccccc2)c(-c2ccccc2)c(-c2ccc(F)cc2)n1CC[C@@H](O)C[C@@H](O)CC(=O)O [Atorvastatin, Atorvastatin calcium salt trihydrate] | 2.112
5 | C[C@H]1O[C@@H](O[C@H]2[C@@H](O)C[C@H](O[C@H]3[C@@H](O)C[C@H](O[C@H]4CC[C@@]5(C)[C@H](CC[C@@H]6[C@@H]5C[C@@H](O)[C@]5(C)[C@@H](C7=CC(=O)OC7)CC[C@]65O)C4)O[C@@H]3C)O[C@@H]2C)C[C@H](O)[C@@H]1O [Digoxin] | 1.404
6 | C[C@H]1O[C@@H](O[C@H]2[C@@H](O)C[C@H](O[C@H]3[C@@H](O)C[C@H](O[C@H]4CC[C@@]5(C)[C@H](CC[C@@H]6[C@@H]5CC[C@]5(C)[C@@H](C7=CC(=O)OC7)CC[C@]65O)C4)O[C@@H]3C)O[C@@H]2C)C[C@H](O)[C@@H]1O [Digitoxin] | 1.229
7 | O=c1cc(-c2ccccc2)oc2ccc(O)cc12 [6-Hydroxyflavone] | 1.874
8 | C[C@]12CC[C@@H]3c4ccc(O)cc4CC[C@H]3[C@@H]1CC[C@@H]2O [Estradiol, 17β-Estradiol] | 3.809
9 | C#C[C@]1(O)CC[C@H]2[C@@H]3CCC4=CC(=O)CC[C@@H]4[C@H]3CC[C@@]21C [Norethindrone, 19-Norethindrone] | 1.817
